Drawing on PMC5651824, “Membrane binding of the insertion sequence of Proteus vulgaris L-amino acid deaminase stabilizes protein structure and increases catalytic activity” (Scientific Reports, 2017), this text covers Km for one substance.

In this data set the test system is N[C@@H](Cc1ccccc1)C(=O)O. Description: purified protein. As to conditions: without membrane, 50 mM potassium phosphate pH 7.5, 37 °C, 5 µM enzyme, 5 min.

Take “FL-pvLAAD (Proteus vulgaris; F355A/I345A/I352A/L347A/L351A)”: the Km (as a rule, the substrate concentration at which the rate is half of its maximum) stood at 10.87 ± 2.25 mM.
